Assay results reported in patent US6355610B2 (priority 1998, dated 2002).

Target: hamster PrP conversion reaction (PrPsen to PrPres) (Mesocricetus auratus, UniProt P04273)
Assay: Cell-free conversion assay (hamster 35S-PrPsen + HaPrPres, PK digestion, SDS-PAGE phosphor imaging)
Assay type: biochemical, Syrian golden hamster
Settings: for inhibition of the conversion reaction (in words): hamster PrP, peptide concentrations up to 0.8 mM

SMILES | IC50 [µM] | inhibition of the conversion reaction (in words)
CSCC[C@H](NC(=O)[C@H](C)NC(=O)[C@H](CO)NC(=O)CNC(=O)[C@H](CC(C)C)NC(=O)[C@H](CCSC)NC(=O)[C@H](Cc1ccc(O)cc1)NC(=O)CNC(=O)CNC(=O)[C@H](CC(C)C)NC(=O)CNC(=O)CNC(=O)[C@@H](NC(=O)[C@@H](NC(=O)[C@H](C)NC(=O)CNC(=O)[C@H](C)NC(=O)[C@H](C)NC(=O)[C@H](C)NC(=O)[C@H](C)N)C(C)C)C(C)C)C(=O)N[C@@H](CO)C(=O)N[C@@H](CCCNC(=N)N)C(=O)N1CCC[C@H]1C(=O)N[C@@H](CCSC)C(=O)N[C@@H](CCSC)C(=O)N[C@@H](Cc1c[nH]cn1)C(=O)N[C@@H](Cc1ccccc1)C(=O)O | 40 | –
CSCC[C@H](NC(=O)[C@H](C)NC(=O)[C@H](CO)NC(=O)CNC(=O)[C@H](CC(C)C)NC(=O)[C@H](CCSC)NC(=O)[C@H](Cc1ccc(O)cc1)NC(=O)CNC(=O)CNC(=O)[C@H](CC(C)C)NC(=O)CNC(=O)CNC(=O)[C@@H](NC(=O)[C@@H](NC(=O)[C@H](C)NC(=O)CN)C(C)C)C(C)C)C(=O)N[C@@H](CO)C(=O)N[C@@H](CCCNC(=N)N)C(=O)N1CCC[C@H]1C(=O)N[C@@H](CCSC)C(=O)N[C@@H](CCSC)C(=O)N[C@@H](Cc1c[nH]cn1)C(=O)N[C@@H](Cc1ccccc1)C(=O)O | 120 | nearly as effective as P113-141
CC(C)C[C@H](NC(=O)CNC(=O)CNC(=O)[C@@H](NC(=O)[C@@H](NC(=O)[C@H](C)NC(=O)CN)C(C)C)C(C)C)C(=O)NCC(=O)NCC(=O)N[C@@H](Cc1ccc(O)cc1)C(=O)O | 550 | able to inhibit the formation of PrPres
CSCC[C@H](NC(=O)[C@H](C)NC(=O)[C@H](CO)NC(=O)CNC(=O)[C@H](CC(C)C)NC(=O)[C@H](CCSC)NC(=O)[C@H](Cc1ccc(O)cc1)NC(=O)CNC(=O)CNC(=O)[C@H](CC(C)C)NC(=O)CNC(=O)CNC(=O)[C@@H](NC(=O)[C@@H](NC(=O)[C@H](C)NC(=O)CNC(=O)[C@H](C)NC(=O)[C@H](C)N)C(C)C)C(C)C)C(=O)N[C@@H](CO)C(=O)N[C@@H](CCCNC(=N)N)C(=O)N1CCC[C@H]1C(=O)N[C@@H](CCSC)C(=O)N[C@@H](CCSC)C(=O)N[C@@H](Cc1c[nH]cn1)C(=O)N[C@@H](Cc1ccccc1)C(=O)O | 80 | –
